Results of unrelated studies side by side (data: NIAID ChemDB).

Shared fields: whole-cell or culture tests; agent: Poliovirus; measure: inhibition

Lines come from different laboratories, so protocols vary. Percent inhibition refers to the dose given; in toxicity tests it is the harm to the cells.

structure,dose,strain,cells,result
CC12CC[C@H](OS(=O)(=O)O)CC1=CCC1C2CCC2(C)C(C(=O)COS(=O)(=O)O)CCC12,40 µg/mL,TYPE 3,VERO,0%
CC(C)CCC[C@@H](COS(=O)(=O)O)[C@H]1CC[C@H]2[C@@H]3CC[C@@H]4[C@H](O)[C@H](OS(=O)(=O)O)CC[C@]4(C)[C@H]3[C@@H](O)C[C@]12C,20 µg/mL,SABIN (TYPE 3),VERO,28%
CC12CC[C@H](O)CC1=CCC1C2CCC2(C)C(C(=O)COS(=O)(=O)O)CCC12,40 µg/mL,TYPE 3,VERO,0%
O=c1c(O)c(-c2ccc(Cl)cc2)oc2ccccc12,6.25 µM,TYPE 2,HeLa,17%
Clc1ccc2c(c1)CC(c1ccccc1)CO2,10 µM,IB (TYPE 2),HEP-2,19%
CC(=O)c1ccc2c(c1)Cc1ccccc1O2,2 µg/mL,TYPE 3,BSC-1,100%
Clc1ccc(C2CCc3ccccc3O2)c(Cl)c1,10 µM,TYPE 2,HEP-2,5%
COC(C)c1ccc2c(c1)Sc1ccccc1O2,10 µg/mL,TYPE 3,BSC-1,18%
Brc1ccc(C2=Cc3ccccc3OC2)cc1,10 µM,IA (TYPE 2),HEP-2,10%
COc1cc(/C=C/C(=O)Oc2c(-c3ccc(Cl)cc3)oc3ccccc3c2=O)ccc1OC(C)=O,1.56 µM,TYPE 2,HeLa,16%
CC(O)c1cccc(Cc2ccccc2)c1,2 µg/mL,TYPE 3,BSC-1,93%
CC(C)CCCC(COS(=O)(=O)O)C1CCC2C3CC=C4C[C@H](O)[C@@H](OS(=O)(=O)O)CC4(C)C3CCC12C,80 µg/mL,TYPE 3,VERO,75.3%
CC(=O)c1ccc(Oc2ccccc2)cc1,0.4 µg/mL,TYPE 3,BSC-1,33%
COc1cc(C(=O)Oc2c(-c3ccc(Cl)cc3)oc3ccccc3c2=O)cc(OC)c1O,1.56 µM,TYPE 2,HeLa,25%
Brc1ccc(C2=Cc3cc(Br)ccc3OC2)cc1,10 µM,IB (TYPE 2),HEP-2,0%
CC(=O)Oc1ccc(/C=C/C(=O)Oc2c(-c3ccc(Cl)cc3)oc3ccccc3c2=O)cc1OC(C)=O,0.39 µM,TYPE 2,HeLa,7%
CCC(=O)C(CCCCCCOc1ccc(OC)cc1Cl)C(=O)CC,0.02 µM,MEF (TYPE 2),HeLa,17%
Clc1ccc2c(c1)C=C(c1ccccc1)CO2,10 µM,TYPE 2,HEP-2,95%
CC(O)c1ccc2c(c1)Sc1cc(C(C)O)ccc1O2,2 µg/mL,TYPE 3,BSC-1,20%
COc1cc(/C=C/C(=O)Oc2c(-c3ccc(Cl)c(Cl)c3)oc3ccccc3c2=O)ccc1O,1.56 µM,TYPE 2,HeLa,11%
CC(=O)OC(C)c1ccc2c(c1)Sc1ccccc1O2,10 µg/mL,TYPE 3,BSC-1,96%
C=C(CC[C@@H](COS(=O)(=O)O)[C@H]1CC[C@H]2[C@@H]3CC[C@@H]4[C@H](O)[C@H](OS(=O)(=O)O)CC[C@]4(C)[C@H]3[C@@H](O)C[C@]12C)C(C)C,10 µg/mL,SABIN (TYPE 3),VERO,33%
Clc1ccc(C2COc3ccc(Cl)cc3C2)cc1,10 µM,IA (TYPE 2),HEP-2,0%
CNC(=O)OC(C)c1ccc2c(c1)Sc1ccccc1O2,0.4 µg/mL,TYPE 3,BSC-1,24%